Results of unrelated studies side by side (data: NIAID ChemDB).

Shared fields: growth or infection tests; organism: Hepatitis C virus

Fold resistance has wild type as its base.

smiles,strain or isolate,changes,cell line,read by,measure,dose,value
CC[C@H]1C[C@]1(NC(=O)[C@@H]1C[C@@H]2CN1C(=O)[C@H](C(C)(C)C)NC(=O)OCC(C)(C)CCCCc1cccc3c1CN(C3)C(=O)O2)C(=O)NS(=O)(=O)C1CC1,JFH-1,L1062M R1181K,Huh7.5,antigen,EC50,,5.111 µM
O=c1cc(-c2ccc(O)cc2)oc2cc(O)cc(O)c12,G1,,Huh7,PCR,inhibition,0.1 µM,40%
C=C[C@@H]1C[C@]1(NC(=O)[C@@H]1C[C@@H](Oc2nccc3ccc(Br)cc23)CN1C(C)=O)C(=O)NS(=O)(=O)C1CC1,1b A156T,,,luciferase,EC50,,>3 µM
CO[C@@H]1[C@H](O)[C@@H](COP(=O)(O)OP(=O)(O)OP(=O)(O)O)O[C@H]1n1ccc(N)nc1=O,,,HepG2-5B,MTT,inhibition,30 µg/mL,52.03%
Fc1ccccc1-c1nc2ccn(Cc3ccc(-c4ccc(C(F)(F)F)cc4C(F)(F)F)nn3)cc-2n1,Con1,Y448H Y452H,1C,luciferase,fold resistance,,221
C[C@@]1(O)[C@H](O)[C@@H](CO)O[C@H]1n1cnc2c(N)ncnc21,GT2a (JFH1),,Huh7-Lunet,luciferase,EC50,,0.672 µM
CCC[C@H](NC(=O)[C@@H]1[C@H]2CCC[C@H]2CN1C(=O)[C@@H](NC(=O)[C@@H](NC(=O)c1cnccn1)C1CCCCC1)C(C)(C)C)C(=O)C(=O)NC1CC1,S52,,Huh7.5,antigen,EC50,,3.367 µM
C[C@@]1(O)[C@H](O)[C@@H](CO)O[C@H]1c1coc2c(N)ncnc12,,,HepG2-5B,MTT,inhibition,2 µg/mL,0%
CC(C)OC(=O)[C@H](C)N[P@](=O)(OC[C@H]1O[C@@](C#N)(c2ccc3c(N)ncnn23)[C@](C)(O)[C@@H]1OC(=O)C(C)C)Oc1ccccc1,1b Con1,M423T,1C,luciferase,fold resistance,,0.76
C[C@@]1(O)[C@H](O)[C@@H](CO)O[C@H]1n1cnc2c(N)ncnc21,genotype 1b,Y93N+V153M+M202L+M265V,Huh7.5,luciferase / reporter gene,EC50,,0.0242 µM
CC(C)n1c(/C=C/[C@@H](O)C[C@@H](O)CC(=O)O)c(-c2ccc(F)cc2)c2ccccc21,,,Huh 9-13,luciferase / replicon,EC90,,17 µM
CC(C)(CO)C(=O)SCCOP(=O)(NCc1ccccc1)OC[C@H]1O[C@@H](n2cnc3c(=O)[nH]c(N)nc32)[C@](C)(O)[C@@H]1O,GT1a,K24E,Replicon cells,replicon,fold resistance,,1.6
CC(C)OC(=O)[C@H](C)N[P@](=O)(OC[C@H]1O[C@@H](n2ccc(=O)[nH]c2=O)[C@](C)(F)[C@@H]1O)Oc1ccccc1,1b Con1,,Huh7,luciferase / replicon,inhibition,0.12 µM,66.8%
CC1=CC[C@H](C(=O)N(c2cc(C#CC(C)(C)C)sc2C(=O)O)C2CCC(O)(CO[C@H]3CCOC3)CC2)CC1,GT5a,,Huh7-Lunet,luciferase,EC50,,0.0088 µM
Clc1ccc(Cn2c(CN3CCCC3)nc3ccccc32)cc1,1b Con1,,Huh7,luciferase / replicon,inhibition,5 µM,37.46%
O=c1c(O)c(-c2ccc(O)c(O)c2)oc2cc(O)cc(O)c12,G1,,Huh7,PCR,inhibition,5 µM,61%

For reference, 2 entries again:

smiles	strain or isolate	changes	cell line	read by	measure	dose	value
CC(C)OC(=O)[C@H](C)N[P@](=O)(OC[C@H]1O[C@@H](n2ccc(=O)[nH]c2=O)[C@](C)(F)[C@@H]1O)Oc1ccccc1	1b Con1		Huh7	luciferase / replicon	inhibition	0.12 µM	66.8%
CC1=CC[C@H](C(=O)N(c2cc(C#CC(C)(C)C)sc2C(=O)O)C2CCC(O)(CO[C@H]3CCOC3)CC2)CC1	GT5a		Huh7-Lunet	luciferase	EC50		0.0088 µM

Rows are shuffled and stem from different studies. ECn: concentration that inhibits the pathogen or its effect by n%. An empty or dashed field is not shown. Percent inhibition refers to the dose given; in toxicity tests it is the harm to the cells.